The source of these data is ChEMBL document CHEMBL1124049, “Synthesis and biological characterization of pyridohomotropanes. Structure-activity relationships of conformationally restricted nicotinoids” (J Med Chem, 1988).

Amino acid sequences for entries named in this document (tags omitted). A change or cut given only in a name is not applied to a line headed by its entry.
UniProt P02710: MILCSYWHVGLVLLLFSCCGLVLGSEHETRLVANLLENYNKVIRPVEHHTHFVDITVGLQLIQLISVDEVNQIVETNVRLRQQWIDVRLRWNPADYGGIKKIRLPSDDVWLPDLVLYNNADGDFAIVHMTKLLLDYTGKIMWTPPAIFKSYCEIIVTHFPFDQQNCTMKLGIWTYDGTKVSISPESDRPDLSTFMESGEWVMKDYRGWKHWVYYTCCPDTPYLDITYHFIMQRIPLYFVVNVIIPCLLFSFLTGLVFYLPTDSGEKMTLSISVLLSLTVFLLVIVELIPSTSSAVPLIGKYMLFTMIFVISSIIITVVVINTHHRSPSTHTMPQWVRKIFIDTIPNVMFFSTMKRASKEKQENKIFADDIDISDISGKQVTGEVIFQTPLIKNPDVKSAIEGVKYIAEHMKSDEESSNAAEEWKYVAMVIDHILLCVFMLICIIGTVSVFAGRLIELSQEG
UniProt P02712: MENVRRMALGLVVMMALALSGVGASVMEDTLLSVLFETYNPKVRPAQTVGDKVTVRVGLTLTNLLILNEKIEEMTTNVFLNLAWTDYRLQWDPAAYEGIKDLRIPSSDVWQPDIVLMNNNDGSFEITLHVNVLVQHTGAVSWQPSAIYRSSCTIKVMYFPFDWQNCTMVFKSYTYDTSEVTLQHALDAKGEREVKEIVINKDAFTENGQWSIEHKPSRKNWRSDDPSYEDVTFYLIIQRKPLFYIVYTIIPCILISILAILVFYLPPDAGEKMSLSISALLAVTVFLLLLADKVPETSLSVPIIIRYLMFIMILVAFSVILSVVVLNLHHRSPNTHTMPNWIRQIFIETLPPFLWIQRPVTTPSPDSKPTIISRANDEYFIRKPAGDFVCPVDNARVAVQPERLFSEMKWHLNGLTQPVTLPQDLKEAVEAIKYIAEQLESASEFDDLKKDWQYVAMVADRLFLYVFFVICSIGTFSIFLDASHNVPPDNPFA
UniProt P02718: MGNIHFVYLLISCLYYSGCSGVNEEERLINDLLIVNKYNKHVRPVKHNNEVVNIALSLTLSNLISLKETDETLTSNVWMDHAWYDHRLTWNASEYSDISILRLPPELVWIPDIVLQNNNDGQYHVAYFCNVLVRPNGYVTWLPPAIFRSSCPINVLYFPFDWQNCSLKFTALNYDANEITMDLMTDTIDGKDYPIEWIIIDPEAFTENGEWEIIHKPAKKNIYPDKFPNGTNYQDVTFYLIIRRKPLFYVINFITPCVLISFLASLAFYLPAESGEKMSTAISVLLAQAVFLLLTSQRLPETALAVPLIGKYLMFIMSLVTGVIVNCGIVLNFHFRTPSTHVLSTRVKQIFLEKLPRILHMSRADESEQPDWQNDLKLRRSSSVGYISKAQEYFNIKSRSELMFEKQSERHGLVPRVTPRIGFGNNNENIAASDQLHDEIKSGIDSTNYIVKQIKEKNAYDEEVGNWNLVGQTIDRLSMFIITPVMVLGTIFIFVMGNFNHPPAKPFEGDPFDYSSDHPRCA
UniProt P02714: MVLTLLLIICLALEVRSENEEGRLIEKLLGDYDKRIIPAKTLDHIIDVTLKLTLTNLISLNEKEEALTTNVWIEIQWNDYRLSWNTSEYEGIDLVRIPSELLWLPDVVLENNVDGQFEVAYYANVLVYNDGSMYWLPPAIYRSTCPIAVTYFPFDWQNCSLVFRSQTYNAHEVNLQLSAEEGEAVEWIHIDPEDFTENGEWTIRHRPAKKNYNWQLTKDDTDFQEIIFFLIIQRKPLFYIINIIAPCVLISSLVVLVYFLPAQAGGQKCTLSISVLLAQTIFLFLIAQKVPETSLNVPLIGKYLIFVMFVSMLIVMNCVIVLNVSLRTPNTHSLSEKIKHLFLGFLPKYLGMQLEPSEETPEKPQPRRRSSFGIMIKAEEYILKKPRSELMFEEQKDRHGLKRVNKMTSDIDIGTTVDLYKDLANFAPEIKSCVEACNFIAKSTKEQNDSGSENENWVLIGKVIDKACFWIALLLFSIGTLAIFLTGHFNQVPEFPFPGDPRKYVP
UniProt P09483: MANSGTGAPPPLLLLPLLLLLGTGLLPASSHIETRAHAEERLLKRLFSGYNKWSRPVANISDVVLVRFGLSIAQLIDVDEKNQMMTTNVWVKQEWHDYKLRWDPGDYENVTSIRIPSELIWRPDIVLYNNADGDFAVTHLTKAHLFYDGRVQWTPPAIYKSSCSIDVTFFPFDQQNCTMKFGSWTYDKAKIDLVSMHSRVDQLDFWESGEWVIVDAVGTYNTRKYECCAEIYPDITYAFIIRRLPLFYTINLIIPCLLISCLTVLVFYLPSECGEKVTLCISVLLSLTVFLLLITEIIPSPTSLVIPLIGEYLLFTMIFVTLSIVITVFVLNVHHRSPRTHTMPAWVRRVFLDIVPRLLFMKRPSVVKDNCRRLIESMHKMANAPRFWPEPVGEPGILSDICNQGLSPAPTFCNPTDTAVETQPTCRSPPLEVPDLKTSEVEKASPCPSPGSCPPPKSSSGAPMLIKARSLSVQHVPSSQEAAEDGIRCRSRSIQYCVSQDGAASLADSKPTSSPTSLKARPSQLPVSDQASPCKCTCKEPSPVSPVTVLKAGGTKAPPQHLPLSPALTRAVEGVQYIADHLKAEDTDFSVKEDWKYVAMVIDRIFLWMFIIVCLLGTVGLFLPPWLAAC
UniProt P12389: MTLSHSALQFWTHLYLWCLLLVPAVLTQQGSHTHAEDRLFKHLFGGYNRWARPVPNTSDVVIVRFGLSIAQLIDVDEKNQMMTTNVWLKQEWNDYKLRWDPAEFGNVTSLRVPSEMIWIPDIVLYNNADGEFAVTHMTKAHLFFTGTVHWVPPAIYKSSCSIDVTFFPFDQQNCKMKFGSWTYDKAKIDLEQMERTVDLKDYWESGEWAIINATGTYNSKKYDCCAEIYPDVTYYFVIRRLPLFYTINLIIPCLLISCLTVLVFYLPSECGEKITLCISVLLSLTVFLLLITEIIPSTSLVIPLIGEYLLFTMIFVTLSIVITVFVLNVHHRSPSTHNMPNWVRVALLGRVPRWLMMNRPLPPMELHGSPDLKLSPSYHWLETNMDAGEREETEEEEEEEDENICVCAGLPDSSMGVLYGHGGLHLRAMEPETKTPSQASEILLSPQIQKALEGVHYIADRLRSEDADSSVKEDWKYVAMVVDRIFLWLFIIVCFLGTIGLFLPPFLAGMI
UniProt P12390: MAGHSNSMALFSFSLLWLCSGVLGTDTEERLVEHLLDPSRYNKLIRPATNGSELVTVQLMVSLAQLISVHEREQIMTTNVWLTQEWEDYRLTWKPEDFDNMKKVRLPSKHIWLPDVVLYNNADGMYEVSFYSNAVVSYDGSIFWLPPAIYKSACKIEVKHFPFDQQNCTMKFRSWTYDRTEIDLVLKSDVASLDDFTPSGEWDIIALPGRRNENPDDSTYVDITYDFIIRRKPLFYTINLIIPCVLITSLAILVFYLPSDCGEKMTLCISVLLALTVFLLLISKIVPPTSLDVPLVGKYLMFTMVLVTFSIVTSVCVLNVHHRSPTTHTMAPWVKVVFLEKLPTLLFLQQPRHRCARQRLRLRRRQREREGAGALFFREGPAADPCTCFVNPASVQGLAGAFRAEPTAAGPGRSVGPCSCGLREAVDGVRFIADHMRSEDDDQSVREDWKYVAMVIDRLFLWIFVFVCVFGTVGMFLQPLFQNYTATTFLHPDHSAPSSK
UniProt P12392: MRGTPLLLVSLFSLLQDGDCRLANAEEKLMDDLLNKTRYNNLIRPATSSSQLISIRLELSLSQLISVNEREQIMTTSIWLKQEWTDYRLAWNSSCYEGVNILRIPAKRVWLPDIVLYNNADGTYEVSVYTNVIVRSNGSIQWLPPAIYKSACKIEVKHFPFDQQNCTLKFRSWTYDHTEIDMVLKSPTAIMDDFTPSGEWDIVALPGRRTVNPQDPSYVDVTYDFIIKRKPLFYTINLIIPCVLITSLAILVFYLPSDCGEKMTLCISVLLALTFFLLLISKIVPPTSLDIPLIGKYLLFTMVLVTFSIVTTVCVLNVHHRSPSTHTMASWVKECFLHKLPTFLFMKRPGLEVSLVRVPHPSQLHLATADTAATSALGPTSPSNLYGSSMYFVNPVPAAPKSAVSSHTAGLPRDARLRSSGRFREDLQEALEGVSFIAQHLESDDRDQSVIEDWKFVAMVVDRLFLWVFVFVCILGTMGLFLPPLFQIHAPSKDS
UniProt P43144: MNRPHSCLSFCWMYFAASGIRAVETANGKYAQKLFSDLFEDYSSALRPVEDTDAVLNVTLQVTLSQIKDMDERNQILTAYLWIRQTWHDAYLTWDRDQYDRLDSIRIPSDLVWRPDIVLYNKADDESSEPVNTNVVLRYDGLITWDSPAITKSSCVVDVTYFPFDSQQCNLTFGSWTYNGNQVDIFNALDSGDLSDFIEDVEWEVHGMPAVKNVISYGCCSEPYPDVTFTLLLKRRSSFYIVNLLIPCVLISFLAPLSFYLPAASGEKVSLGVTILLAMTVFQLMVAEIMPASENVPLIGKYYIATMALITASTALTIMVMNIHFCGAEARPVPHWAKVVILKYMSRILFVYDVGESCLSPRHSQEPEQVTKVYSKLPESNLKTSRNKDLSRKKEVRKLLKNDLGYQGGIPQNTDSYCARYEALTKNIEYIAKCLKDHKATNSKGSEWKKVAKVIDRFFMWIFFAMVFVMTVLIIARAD
UniProt P12391: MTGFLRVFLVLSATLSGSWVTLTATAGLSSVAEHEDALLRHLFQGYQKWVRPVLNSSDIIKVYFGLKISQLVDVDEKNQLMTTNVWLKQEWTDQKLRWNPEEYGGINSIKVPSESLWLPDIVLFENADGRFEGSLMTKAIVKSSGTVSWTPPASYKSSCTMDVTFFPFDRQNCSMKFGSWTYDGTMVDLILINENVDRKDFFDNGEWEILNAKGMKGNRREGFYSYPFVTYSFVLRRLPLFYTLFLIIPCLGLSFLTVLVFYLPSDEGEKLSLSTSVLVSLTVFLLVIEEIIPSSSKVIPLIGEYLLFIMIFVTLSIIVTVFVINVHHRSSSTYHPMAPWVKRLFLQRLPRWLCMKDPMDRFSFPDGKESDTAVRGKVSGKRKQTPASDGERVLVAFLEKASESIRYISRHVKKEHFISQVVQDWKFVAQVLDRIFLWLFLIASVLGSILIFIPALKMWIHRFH
UniProt P43143: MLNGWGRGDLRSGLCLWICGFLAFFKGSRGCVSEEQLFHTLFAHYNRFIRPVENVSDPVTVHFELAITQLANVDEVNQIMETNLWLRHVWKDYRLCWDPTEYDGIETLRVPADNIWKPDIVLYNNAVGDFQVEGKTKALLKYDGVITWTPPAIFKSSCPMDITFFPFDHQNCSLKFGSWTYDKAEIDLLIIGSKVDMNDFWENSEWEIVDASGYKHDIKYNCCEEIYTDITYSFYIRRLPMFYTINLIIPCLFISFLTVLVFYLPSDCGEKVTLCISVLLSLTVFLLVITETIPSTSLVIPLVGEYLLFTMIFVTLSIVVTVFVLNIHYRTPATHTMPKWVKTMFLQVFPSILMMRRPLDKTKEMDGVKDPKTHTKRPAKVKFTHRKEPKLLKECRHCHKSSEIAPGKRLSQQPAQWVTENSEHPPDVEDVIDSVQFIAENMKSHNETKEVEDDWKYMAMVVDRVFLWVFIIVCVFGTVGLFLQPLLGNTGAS
UniProt P20420: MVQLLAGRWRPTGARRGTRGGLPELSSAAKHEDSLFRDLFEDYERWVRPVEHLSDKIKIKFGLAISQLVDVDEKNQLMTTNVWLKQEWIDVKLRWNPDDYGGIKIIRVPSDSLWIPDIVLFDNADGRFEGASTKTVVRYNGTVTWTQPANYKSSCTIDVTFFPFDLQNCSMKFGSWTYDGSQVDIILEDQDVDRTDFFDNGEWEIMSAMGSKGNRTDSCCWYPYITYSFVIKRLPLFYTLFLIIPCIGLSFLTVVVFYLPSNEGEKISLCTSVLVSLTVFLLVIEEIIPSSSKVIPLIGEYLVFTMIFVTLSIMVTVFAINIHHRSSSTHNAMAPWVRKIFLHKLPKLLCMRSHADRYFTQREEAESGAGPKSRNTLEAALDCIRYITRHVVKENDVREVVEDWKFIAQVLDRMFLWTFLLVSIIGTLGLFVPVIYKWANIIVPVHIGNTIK
UniProt Q05941: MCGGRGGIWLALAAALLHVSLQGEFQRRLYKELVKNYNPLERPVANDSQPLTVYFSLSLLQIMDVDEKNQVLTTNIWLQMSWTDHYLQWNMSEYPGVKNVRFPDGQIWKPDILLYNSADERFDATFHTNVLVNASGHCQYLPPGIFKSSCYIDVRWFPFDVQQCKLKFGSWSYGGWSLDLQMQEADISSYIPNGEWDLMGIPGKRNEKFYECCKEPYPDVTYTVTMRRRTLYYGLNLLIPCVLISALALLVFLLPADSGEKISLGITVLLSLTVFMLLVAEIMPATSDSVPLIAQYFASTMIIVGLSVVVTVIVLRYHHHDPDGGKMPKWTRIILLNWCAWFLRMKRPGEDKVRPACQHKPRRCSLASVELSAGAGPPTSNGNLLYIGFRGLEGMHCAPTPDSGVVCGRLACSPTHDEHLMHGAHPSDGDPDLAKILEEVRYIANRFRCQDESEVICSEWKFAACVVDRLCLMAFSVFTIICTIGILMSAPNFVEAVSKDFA

One assay addresses Acetylcholine receptor (Torpedo californica) (UniProt P02710+P02712+P02718+P02714). In words: Potency relative to PHT in torpedo electroplax membranes ([3H]MCC binding).
As for `CC(=O)C1=CCCC2CCC1N2` (stereo not drawn), the Relative potency was 1.

As to `c1cc2c(cn1)C1CCC(CC2)N1` (stereo not drawn), the Relative potency stood at 1.

Compound `CN1C2CCc3ccncc3C1CC2` (stereo not drawn) registered a Relative potency of 0.0005.

`Cc1nccc2c1C1CCC(CC2)N1` (stereo not drawn): the Relative potency amounted to 0.0003.

In a further assay the target is Neuronal acetylcholine receptor (Rattus norvegicus) (UniProt P04757+P09483+P12389+P12390+P12392+P43144+Q9JLB5+P12391+P43143+P20420+Q05941). In words: Potency relative to PHT in rat brain membranes ([3H]MCC binding).
As for `CC(=O)C1=CCCC2CCC1N2` (stereo not drawn), the Relative potency came to 1.

In turn, `c1cc2c(cn1)C1CCC(CC2)N1` (stereo not drawn) returned a Relative potency of 1.

`CN1C2CCc3ccncc3C1CC2` (stereo not drawn) displayed a Relative potency of 0.0033.

With `Cc1nccc2c1C1CCC(CC2)N1` (stereo not drawn), the Relative potency amounted to 0.014.
